# Screening data, single-dose tests

Data taken from ChEMBL document CHEMBL3988442, “University of Dundee, Small-Polar-MMV Screening Library” (2021).

The filed quantity is “Percent Effect” (%). The controls that fix the scale are not given in the record; negative values are as filed. The entries come from a sample that favours strong results. A dash means the value is not listed here; it may have been measured.

Mtb glucose medium: 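Phenotypic screen: M. tuberculosis growth, glucose 7H9 medium, 3 days; the read-out is not stated. Tested at 500 µM. Higher reads as more growth inhibition (inferred: compounds with an IC50 in retests scored well above the rest). About 18,000 compounds were tested under these conditions; 7.9% (about 1,400) showed 50% or more at least once.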
Mtb cholesterol medium: 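Growth of Mycobacterium tuberculosis over 4 days (cholesterol / DPPC medium with tyloxapol); the read-out is not stated. Concentration: 500 µM. Direction is inferred from retests: higher values go with more growth inhibition. Of about 18,000 compounds tested this way, about 900 (5%) reached 50% or more in at least one test.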

With CCOC(=O)Cn1nc(C)c(CN)c1C the screen gave Mtb cholesterol medium: -1.27%. With CCOC(=O)c1nn(CC)c2c1CNCC2 the screen gave Mtb glucose medium: 14.35%. c1ccc(CSc2nnc(C3CC3)[nH]2)nc1 gave Mtb glucose medium: 26.7%. NCCOc1ccccc1OCCN gave Mtb glucose medium: 5.295%. Result for CC(C)(C)OC(=O)NCCC1CC(=O)C1 was Mtb glucose medium: 17.46%. Result for CCOc1ncccc1CNC(=O)c1ccnn1C was Mtb glucose medium: 7.781%. Result for NCc1cc(=O)n2ccccc2n1 was Mtb glucose medium: -20.82%. Cc1cccc(CNC(C)(CO)CO)c1C read Mtb glucose medium: 3.347%.

CN(Cc1cccc(O)c1)C(=O)c1cc[nH]n1 gave Mtb cholesterol medium: 8.565%. O=C(CNc1cccc2c1CCCC2)N1CCNC1=O gave Mtb glucose medium: -15.68%. CCN(CC)S(=O)(=O)c1csc(C(N)=O)c1 gave Mtb glucose medium: 3%. Cc1cc(CNC(=O)CCC2CCCN(C)C2)n(C)n1 (stereo not drawn) gave Mtb glucose medium: 2.088%. For CCn1ncnc1CN1CC(Oc2ccccc2)C1 the result was Mtb glucose medium: 68.6%. O=C(NCCC(=O)N1CCCC1)Nc1nncs1 read Mtb glucose medium: 1.761%. Result for CCn1ccc(CNC(=O)CCn2cc(Br)c(C)n2)n1 was Mtb cholesterol medium: 20.04%. For COCCCn1ccc(NC(=O)NC(C)(C)C)n1 the result was Mtb glucose medium: 13.94%.

For COC(=O)c1snc(C(=O)NCc2ccccc2)c1N the result was Mtb glucose medium: 40.67%. NC(=O)C1CCN(C(=O)Cc2ccsc2)CC1 read Mtb cholesterol medium: -34.68%. Result for N#Cc1ccc(NCC2(O)CCOCC2)cc1Cl was Mtb cholesterol medium: 16.44%. CNC(=O)CC(C)N(C)C(=O)c1ccc2c(c1)CCC2 (stereo not drawn) read Mtb glucose medium: 21.92%. COC(=O)[C@@H]1C[C@@H](O)CN1CC(=O)N1CCCCCC1 read Mtb glucose medium: -3.892%. Result for CS(=O)(=O)N1CCCc2c(F)cccc21 was Mtb cholesterol medium: -13.11%. With NCCc1cnn(-c2ccccc2)c1 the screen gave Mtb glucose medium: 70.22%; Mtb cholesterol medium: 62.94%. N[C@H]1CN(S(=O)(=O)N2CCOCC2)C[C@@H]1C1CC1 read Mtb glucose medium: 11.25%.

O=C1CC(c2cccc(Cl)c2)CC(=O)N1 read Mtb glucose medium: -7.465%. CN(Cc1c(F)cccc1Cl)C(=O)CNC(=O)C1CC1 read Mtb glucose medium: 63.31%; Mtb cholesterol medium: 55.69%. With NC(=O)c1ccc(-c2ccc(F)cc2)o1 the screen gave Mtb glucose medium: 24.33%; Mtb cholesterol medium: 15.52%. With NC1CCN(C2CCSCC2)CC1 the screen gave Mtb glucose medium: 8.135%. Result for O=C1CCC(Nc2nc(-c3ccccc3)ns2)CN1 (stereo not drawn) was Mtb cholesterol medium: 50.83%. For O=C(NCc1cccnc1)c1ccc(C(F)(F)F)nc1 the result was Mtb glucose medium: 18.87%; Mtb cholesterol medium: -5.74%. For CCN1CCCC1CNC(=O)C(C)(C)C (stereo not drawn) the result was Mtb glucose medium: -4.794%. With Cc1cccc2[nH]c(C(C)O)nc12 (stereo not drawn) the screen gave Mtb glucose medium: 26.01%.

With CCO[C@H]1CN(C(=O)CCn2ccnc2C)C[C@@H]1O the screen gave Mtb cholesterol medium: 13.87%.

For reference, 4 entries once more:

Compound	Mtb glucose medium	Mtb cholesterol medium
COC(=O)c1snc(C(=O)NCc2ccccc2)c1N	40.67%	-
Cc1cccc(CNC(C)(CO)CO)c1C	3.347%	-
COCCCn1ccc(NC(=O)NC(C)(C)C)n1	13.94%	-
N[C@H]1CN(S(=O)(=O)N2CCOCC2)C[C@@H]1C1CC1	11.25%	-